Measured values from several laboratories, pooled; numbers as filed in NIAID ChemDB.

Common to all: growth or infection tests; species: HIV-1; read by: p24 / ELISA; endpoint: EC50

Neighbouring rows are from separate reports. Blank or dashed fields: not listed here. ECn: concentration that inhibits the pathogen or its effect by n%.

| SMILES | changes | cells | strain | value |
|---|---|---|---|---|
| Nc1nc(=O)n([C@@H]2CS[C@H](CO)O2)cc1F | L74V | Primary T lymphocytes | - | 0.2 µM |
| CC(C)n1nc(-c2ccc3oc(N)nc3c2)c2c(N)ncnc21 | - | PBMC | 93BR029 | 0.00473 µM |
| Cc1cn([C@H]2C[C@H](N=[N+]=[N-])[C@@H](CO)O2)c(=O)[nH]c1=O | A62V V75I F77L F116Y Q151M | Primary T lymphocytes | - | 4.6 µM |
| CC(C)CN(C[C@@H](O)[C@H](Cc1ccccc1)NC(=O)O[C@H]1CCOC1)S(=O)(=O)c1ccc(N)cc1 | M200I | MT-2 | IIIB | 0.0473 µM |
| Nc1ccn([C@@H]2CS[C@H](CO)O2)c(=O)n1 | - | Primary T lymphocytes | LAI | 0.8 µM |
| NC(=O)c1cc2c(-c3ccc4ccccc4c3)cncc2s1 | - | Jurkat cells | NL4-3 | 0.0034 µM |
| Cc1cn([C@H]2C[C@H](N=[N+]=[N-])[C@@H](CO)O2)c(=O)[nH]c1=O | - | TZM-bl | REJO4541.67 | 0.01841 µM |
| COc1ccc(-c2cncc3sc(C(N)=O)cc23)cc1 | - | Jurkat cells | NL4-3 | 0.0045 µM |
| Cc1cc(C)cc([C@]23SCCN2C(=O)c2ccccc23)c1 | - | PBMC | D79 | 0.009 µM |
| Cc1cc2c(N)c(C(N)=O)sc2nc1-c1ccc(F)cc1 | - | U1 | - | 6.19 µM |
| CCN(c1nc(F)ccc1NC(C)(C)C)C1CCN(C(=O)c2cc3cc(NC(=O)N4CCN(C)CC4)ccc3[nH]2)CC1 | K112M K113E V128I M200I H219P I401T R409K D437N L441P R41K | MT-2 | IIIB | 0.0261 µM |
| CCc1c(CC2CCCCC2)nc(SCC(=O)c2ccccc2)[nH]c1=O | K103N | C8166 | NL4-3 | 0.709 µM |
| Cc1cn([C@H]2C[C@H](N=[N+]=[N-])[C@@H](CO)O2)c(=O)[nH]c1=O | R41K | MT-2 | IIIB | 0.153 µM |
| NC(=O)c1sc2cncc(-c3ccc4c(c3)CCO4)c2c1N | - | U1 | - | 0.091 µM |
| CCCCCCCCCCCCCCCCCCCCCCC(=O)O[C@@H]1[C@@H](C)[C@@]2(O)[C@@H](C=C(COC(C)=O)C[C@]3(O)C(=O)C(C)=C[C@@H]23)[C@@H]2C(C)(C)[C@]12O | Vif-deficient | C8166 | NL4-3 | 7.987 µM |
| NC(=O)c1cc2c(-c3ccc4c(c3)CCO4)cncc2s1 | - | PBMC | 92TH014 | 0.0196 µM |
| Cc1cc(=O)c2ccc(N=C=S)cc2o1 | - | CEM-GFP | NL4-3 | 0.173 µM |
| NC(=O)c1cc2c(-c3cccc(-c4ccccc4)c3)cncc2s1 | - | U1 | - | 0.368 µM |
| Cc1cn([C@H]2C[C@H](N=[N+]=[N-])[C@@H](CO)O2)c(=O)[nH]c1=O | - | PBMC | D148/86 | 0.02 µM |

The first 2 rows once more:

| SMILES | changes | cells | strain | value |
|---|---|---|---|---|
| Nc1nc(=O)n([C@@H]2CS[C@H](CO)O2)cc1F | L74V | Primary T lymphocytes | - | 0.2 µM |
| CC(C)n1nc(-c2ccc3oc(N)nc3c2)c2c(N)ncnc21 | - | PBMC | 93BR029 | 0.00473 µM |